Measured values from several laboratories, pooled; numbers as filed in NIAID ChemDB.

Common to all: whole-cell or culture tests; agent: Mycobacterium tuberculosis

MIC50, MIC90 and the like: level of inhibition, or share of isolates inhibited. Percent inhibition refers to the dose given; in toxicity tests it is the harm to the cells. ECn: concentration that inhibits the pathogen or its effect by n%. MIC bound comes from a single tested concentration. An empty or dashed field is not shown. Neighbouring rows are from separate reports.

SMILES | changes | method | dose | strain or isolate | read-out | result
COC1C(OC(C)=O)CC(=O)OC(C)CC2OC2/C=C\C(=O)C(C)CC(CC=O)C1OC1OC(C)C(OC2CC(C)(O)C(OC(=O)CC(C)C)C(C)O2)C(N(C)C)C1O | - | BACTEC | - | H37Rv | MIC | ≥12.8 µg/mL
Cc1cccc(/C=N/C(=O)NCCCN2c3ccccc3Sc3ccccc32)c1 | - | agar | 25 µg/mL | H37Rv | inhibition | 24%
CSc1ccc(-c2cc(CN3CCSCC3)c(C)n2-c2ccc(F)cc2)cc1 | - | - | - | H37Rv | MIC90 | 13.81 µM
O=C1CSC(c2ccccc2Br)N1C(=O)NCCCN1c2ccccc2Sc2ccccc21 | - | agar | 25 µg/mL | H37Rv | inhibition | 30%
CCCCCNC(=O)CCc1cnc(C2C3CC4CC(C3)CC2C4)[nH]1 | - | - | 6.25 µg/mL | H37Rv | inhibition | 25%
O=c1c(Br)c(-c2ccccc2)oc2ccccc12 | - | - | - | H37Rv | MIC | >12.5 µg/mL
NCCC[C@H](N)CC(=O)N[C@H]1CNC(=O)[C@H]([C@H]2C[C@H](O)NC(N)=N2)NC(=O)/C(=C/NC(N)=O)NC(=O)[C@H](CO)NC(=O)[C@H](CO)NC1=O | - | - | - | Isolate CKN-301 (rrs A1401G mutation) | MIC | >80 µg/mL
CC1CCC2C1(C)CCC1C2(C)CCC2(C)C3CC(C)(C)CCC3(C)CCC12C | - | BACTEC | 12.5 µg/mL | H37Rv | inhibition | 0%
CCc1ccc(-c2cc(CN3CCOCC3)c(C)n2-c2ccc(Cl)cc2)cc1 | - | - | - | H37Rv | MIC90 | >321 µM
O=C(COc1ccccc1)N/N=C1\CCOc2ccccc21 | - | - | - | H37Rv | EC50 | ~40 µg/mL
O=C(NCCCN1c2ccccc2Sc2ccccc21)N1C(=O)/C(=C\c2ccccc2Cl)SC1c1ccccc1Cl | - | agar | 50 µg/mL | H37Rv | inhibition | 80%
CCCCCCCCOC(=O)c1c(Cl)c(Cl)c(C(=O)OCCCCCCCC)c(Cl)c1Cl | - | BACTEC | 0.5 µM | - | inhibition | 0%
COc1ccc(-c2cc(=O)c3cc(F)ccc3o2)cc1 | - | - | 12.5 µg/mL | H37Rv | inhibition | 0%
CC1COc2c(N3CCN(C)CC3)c(F)cc3c(=O)c(C(=O)O)cn1c23 | - | broth dilution | - | Rifampicin-resistant JALMA | MIC | 0.5 µg/mL
COc1ccc2c(=O)cc(-c3cccc([N+](=O)[O-])c3)oc2c1 | - | - | - | H37Rv | MIC | >12.5 µg/mL
CCn1cc(C(=O)O)c(=O)c2cc(F)c(N3CCNCC3)nc21 | - | BACTEC | 12.5 µg/mL | H37Rv | inhibition | 90%
CO[C@H]1/C=C/O[C@@]2(C)Oc3c(C)c(O)c4c(O)c(c(/C=N/OC(Cc5ccccc5)C(=O)O)c(O)c4c3C2=O)NC(=O)/C(C)=C\C=C\[C@H](C)[C@H](O)[C@@H](C)[C@@H](O)[C@@H](C)[C@H](OC(C)=O)[C@@H]1C | - | - | - | H37Rv | MIC | 5 µg/mL
CC(=O)Oc1c(C/C=C(\C)CC/C=C(\C)CCC=C(C)C)c(=O)oc2ccccc12 | - | - | - | H37Rv | MIC | >12.5 µg/mL
O=c1ccc2cc(O)c(O)cc2o1 | - | BACTEC | 12.5 µg/mL | H37Rv | inhibition | -8%
CC[C@H]1OC(=O)[C@H](C)C(=O)[C@H](C)[C@@H](O[C@@H]2O[C@H](C)C[C@H](N(C)C)[C@H]2O)[C@](C)(OC)C[C@@H](C)C(=O)[C@H](C)[C@H]2N(NCCCc3ccnc4ccccc34)C(=O)O[C@]12C | - | - | - | Isolate 900216 | MIC | 40 µg/mL
CCC1CN(c2c(F)cc3c(=O)c(C(=O)O)cn([C@@H]4C[C@@H]4F)c3c2OC)CCN1 | - | - | - | 50 (RFP-resistant) | MIC | 0.25 µg/mL
CC(C)c1c(O)ccc2c1CCC1C(C)(C)CCC[C@]21C | - | - | - | H37Rv | EC50 | >12.5 µg/mL
O=C([C@@H](O)CO)N1CC=C(c2c(F)cc(N3C[C@H](COc4ccon4)OC3=O)cc2F)CC1 | - | broth dilution | - | H37Rv (ATCC 27294) | EC50 | 1.24 µg/mL
N/C(=N\N=C\c1ccccc1Cl)c1ccncc1 | - | - | - | 1481 | MIC | 16 µg/mL
C=C/C(C)=C/[C@@]1(C)SC(=O)C(C)=C1O | - | - | - | TLM-resistant | MIC | 30 µg/mL
O=c1cc(-c2ccccc2)oc2ccc(Br)cc12 | - | - | 12.5 µg/mL | H37Rv | inhibition | 8%
Cc1ccc(C)c(/C=N/N=C(\N)c2ccncc2)c1 | - | - | - | 1342 | MIC | 128 µg/mL
COc1c(-c2ccccc2)oc2ccc(Br)cc2c1=O | - | - | - | H37Rv | MIC | >12.5 µg/mL
O=C1CSC(c2cccc(O)c2)N1C(=O)NCCCN1c2ccccc2Sc2ccccc21 | - | agar | 50 µg/mL | H37Rv | inhibition | 70%
CC(C)(C)OC(=O)N[C@@H](Cc1ccccc1)C(=O)OCN1C(=O)C2C(C1=O)C1C2[C@@H]2C=C[C@H]1C1C(=O)N(COC(=O)[C@H](Cc3ccccc3)NC(=O)OC(C)(C)C)C(=O)C12 | - | resazurin | 6.25 µg/mL | H37Rv | inhibition | 2%
COc1ccccc1C1SCC(=O)N1C(=O)NCCCN1c2ccccc2Sc2ccccc21 | - | agar | 50 µg/mL | H37Rv | inhibition | 50%
CCOC(=O)c1nc(C(C)C)[nH]c1C(C)C | - | - | - | H37Rv | MIC | >6.25 µg/mL
CC1COc2c(N3CCN(C)CC3)c(F)cc3c(=O)c(C(=O)O)cn1c23 | - | - | - | 250 isolates | MIC50 | 1 µg/mL
Cn1c(=O)c2nc3c(=O)n(C)c(=O)n(C)c3nc2n(C)c1=O | - | BACTEC | 12.5 µg/mL | H37Rv | inhibition | 0%
COc1ncc(F)c2nc(S(=O)(=O)Nc3c(O)cccc3C(C)O)nn12 | INH RIF resistant | visual reading | - | M22 | MIC50 | 0.5 µM
CCOC(=O)c1nc(C23CC4CC(CC(C4)C2)C3)[nH]c1C1C2CC3CC(C2)CC1C3 | - | - | - | H37Rv | MIC | >6.25 µg/mL
CO[C@H]1/C=C/O[C@@]2(C)Oc3c(C)c(O)c4c(O)c(c(/C=N/OCc5ccccc5)c(O)c4c3C2=O)NC(=O)/C(C)=C\C=C\[C@H](C)[C@H](O)[C@@H](C)[C@@H](O)[C@@H](C)[C@H](OC(C)=O)[C@@H]1C | - | - | - | H37Rv | MIC | 0.5 µg/mL
COc1ccccc1/C=N/N=C(\N)c1ccncc1 | - | - | - | 1054 | MIC | 32 µg/mL
O=[N+]([O-])c1cccn2nc([C@@H]3O[C@H](CO)[C@@H](O)[C@H]3O)nc12 | - | BACTEC | - | H37Rv | MIC bound | >12.5 µg/mL
Cc1ccc(/C=N/N=C(\N)c2ccncc2)cc1 | - | - | - | 1481 | MIC | 16 µg/mL
O=C(/C=C/c1ccco1)c1ccc(Br)cc1O | - | - | - | H37Rv | MIC | >12.5 µg/mL
CC(C)(C)c1ncc(C(=O)O)[nH]1 | - | - | 6.25 µg/mL | H37Rv | inhibition | 0%
CCC1CN(c2c(F)cc3c(=O)c(C(=O)O)cn(C4CC4)c3c2OC)CCN1 | - | - | - | 68 (RFP-susceptible) | MIC | 0.25 µg/mL
N/C(=N\N=C\c1ccc(Cl)c(Cl)c1)c1ccncc1 | - | - | - | H37Rv | MIC | 256 µg/mL
CCc1ccc(-c2cc(CN3CCOCC3)c(C)n2-c2ccc(F)cc2)cc1 | V681I | - | - | H37Rv DR1 | MIC | 0.66 µM
Cc1ccc(/C=C2/SC(c3ccc(C)cc3)N(C(=O)NCCCN3c4ccccc4Sc4ccccc43)C2=O)cc1 | - | agar | 25 µg/mL | H37Rv | inhibition | 22%
NNC(=O)Cc1c[nH]c2ccccc12 | - | BACTEC | - | H37Rv | MIC bound | >12.5 µg/mL
C=C(C)CO/N=C/c1c2c(O)c3c(O)c(C)c4c(c3c1O)C(=O)[C@@](C)(O/C=C/[C@H](OC)[C@@H](C)[C@@H](OC(C)=O)[C@H](C)[C@H](O)[C@H](C)[C@@H](O)[C@@H](C)/C=C/C=C(/C)C(=O)N2)O4 | - | - | - | H37Rv | MIC | 0.2 µg/mL
Cc1ccc(C2SCC(=O)N2C(=O)NCCCN2c3ccccc3Sc3ccccc32)cc1 | - | agar | 50 µg/mL | H37Rv | inhibition | 41%
N/C(=N\N=C\c1ccc(Cl)cc1)c1ccncc1 | - | - | - | 1054 | MIC | 64 µg/mL
CC(=O)NNc1nc(C)c(C(=O)NNC(=O)C(=O)Nc2nc3ccc([N+](=O)[O-])cc3s2)s1 | - | BACTEC | 12.5 µg/mL | H37Rv | inhibition | 29%
NNC(=O)c1ccncc1 | T460C Cys154Arg | - | - | AZD5847-resistant 4.6 | MIC | 0.06 µg/mL
Cc1c(F)c(N2CCNC(C)C2)cc2c1c(=O)c(C(=O)O)cn2C1CC1 | - | - | - | 206 isolates (susceptible) | MIC50 | 1 µg/mL
COC(=O)/C=C/c1cnc[nH]1 | - | - | - | H37Rv | MIC | >6.25 µg/mL
O=C(O)CNC1=C(Cl)C(=O)c2ccccc2C1=O | - | BACTEC | - | H37Rv | MIC bound | >12.5 µg/mL
O=c1cc(-c2ccc(O)cc2)oc2ccccc12 | - | - | - | H37Rv | MIC | >12.5 µg/mL
Cc1ccc(NCCN(C)C)c2c(=O)c3cc(O)ccc3sc12.I | - | BACTEC | 12.8 µg/mL | H37Rv | inhibition | 11%
CO[C@H]1/C=C/O[C@@]2(C)Oc3c(C)c(O)c4c(O)c(c5c(c4c3C2=O)NC2(CCN(CC(C)C)CC2)N=5)=NC(=O)/C(C)=C\C=C\[C@H](C)[C@H](O)[C@@H](C)[C@@H](O)[C@@H](C)[C@H](OC(C)=O)[C@@H]1C | - | - | - | 32 clinical isolates | MIC40 | 1.56 µg/mL
Cc1c(N2CC3CCCNC3C2)c(F)cc2c(=O)c(C(=O)O)cn([C@@H]3C[C@@H]3F)c12 | - | - | - | Kurono RFP-susceptible | MIC | 0.006 µg/mL
Cc1ccc(-c2cc(CN3CCOCC3)c(C)n2-c2ccc(F)cc2)cc1 | - | - | - | H37Rv | MIC90 | 55.56 µM
CSC(=S)N/N=C(\C)c1ccc[nH]1 | - | BACTEC | - | H37Rv | MIC bound | ≤12.5 µg/mL
COc1ccc(/C=C/C(=O)c2ccc(F)cc2O)cc1 | - | - | - | H37Rv | MIC | >12.5 µg/mL
S=c1n(-c2ccc(Cl)cc2)c2nc3ccccc3nc(/c2=N\Nc2cc(Cl)ccc2Cl)n1-c1ccccn1 | - | BACTEC | - | H37Rv | MIC | ≥12.5 µg/mL
CC(C)c1nc(C(=O)O)c(C(C)C)[nH]1 | - | - | 6.25 µg/mL | H37Rv | inhibition | 0%
CCc1cc(C(N)=S)ccn1 | - | - | - | H37Rv | MBC | 2.5 µg/mL
C[C@H]1COc2c(N3CCN(C)CC3)c(F)cc3c(=O)c(C(=O)O)cn1c23 | - | - | - | 099-3 | MIC | 0.5 µg/mL
Cc1c(N=Cc2ccccc2)c(=O)n(-c2ccccc2)n1C | - | BACTEC | - | H37Rv | MIC bound | >12.8 µg/mL
COc1ccccc1/C=C/C(=O)c1ccccc1O | - | - | - | H37Rv | MIC | >12.5 µg/mL
C=C1C(=O)O[C@H]2C[C@@H]1C(=O)CC(C)CCC/C(C)=C/CC[C@@]2(C)O | - | BACTEC | - | H37Rv | MIC | ≥12.5 µg/mL
N#Cc1ccc(/C=N/N=C(\N)c2ccncc2)cc1 | - | - | - | 1342 | MIC | >256 µg/mL
CCOC(=O)C(=O)C(C(=O)c1ccccn1)c1nc2n(c1O)C(=N)N=N2 | - | resazurin | - | H37Rv | MIC bound | >6.25 µg/mL
Cc1ccn2nc(S(=O)(=O)Nc3c(Br)ccc4cccnc34)nc2n1 | INH RIF resistant | visual reading | - | M23 | MIC50 | 0.5 µM
O=C1OC2CCCCC2C2CC34CCCCC3C(C(=O)O4)C12 | - | BACTEC | 12.5 µg/mL | H37Rv | inhibition | 17%
CO/N=C/c1c2c(O)c3c(O)c(C)c4c(c3c1O)C(=O)[C@@](C)(O/C=C/[C@H](OC)[C@@H](C)[C@@H](OC(C)=O)[C@H](C)[C@H](O)[C@H](C)[C@@H](O)[C@@H](C)/C=C/C=C(/C)C(=O)N2)O4 | - | - | - | H37Rv | MIC | 0.05 µg/mL
CCN(CC)c1cc2c(cc1C)nc1cc(C)c(=[N+]=Nc3ccc(N(C)C)cc3)cc-1n2-c1ccccc1 | - | BACTEC | - | H37Rv | MIC bound | ≤12.5 µg/mL
O=C(O)c1nc(C2CCCC2)[nH]c1C1CCCC1 | - | - | - | H37Rv | MIC | >6.25 µg/mL
CC(C)(CO)NCC(C)(C)NC(Cc1ccccc1)c1ccccc1.Cl.Cl | - | BACTEC | - | H37Rv | MIC bound | >12.8 µg/mL
CO[C@H]1/C=C/O[C@@]2(C)Oc3c(C)c(O)c4c(O)c(c(/C=N/N5CCN(C)CC5)c(O)c4c3C2=O)NC(=O)/C(C)=C\C=C\[C@H](C)[C@H](O)[C@@H](C)[C@@H](O)[C@@H](C)[C@H](OC(C)=O)[C@@H]1C | 526Leu | - | - | - | MIC99 | ≥640 µg/mL

A second listing of 8 rows from above:

| SMILES | changes | method | dose | strain or isolate | read-out | result |
|---|---|---|---|---|---|---|
| CCn1cc(C(=O)O)c(=O)c2cc(F)c(N3CCNCC3)nc21 | - | BACTEC | 12.5 µg/mL | H37Rv | inhibition | 90% |
| COc1ncc(F)c2nc(S(=O)(=O)Nc3c(O)cccc3C(C)O)nn12 | INH RIF resistant | visual reading | - | M22 | MIC50 | 0.5 µM |
| N#Cc1ccc(/C=N/N=C(\N)c2ccncc2)cc1 | - | - | - | 1342 | MIC | >256 µg/mL |
| O=C1OC2CCCCC2C2CC34CCCCC3C(C(=O)O4)C12 | - | BACTEC | 12.5 µg/mL | H37Rv | inhibition | 17% |
| O=c1ccc2cc(O)c(O)cc2o1 | - | BACTEC | 12.5 µg/mL | H37Rv | inhibition | -8% |
| COc1ccc(-c2cc(=O)c3cc(F)ccc3o2)cc1 | - | - | 12.5 µg/mL | H37Rv | inhibition | 0% |
| Cc1ccc(C)c(/C=N/N=C(\N)c2ccncc2)c1 | - | - | - | 1342 | MIC | 128 µg/mL |
| Cn1c(=O)c2nc3c(=O)n(C)c(=O)n(C)c3nc2n(C)c1=O | - | BACTEC | 12.5 µg/mL | H37Rv | inhibition | 0% |